Measurements reported in PubChem BioAssay AID504761 (Drosophila RNAi Screening Center, 2011)

- Purpose: 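Insect host genes that dengue virus relies on to spread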 (primary screen)
- Cells: D.Mel-2 cells from Drosophila
- Reagent: long dsRNA against Drosophila genes
- Challenge: infection with dengue virus type 2; dose and infection time not stated
- Measured: 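Per well on two replicate plates, imaging gave the percent of cells positive for viral envelope protein, ranked by infection, and a nuclear count of cells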
- Reading the numbers: infection score: higher = more virus-infected cells; cell count: higher = more cells in the well
- Hit rule: 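Low infection ranks in the two replicates (chance level up to 0.065) followed by a retest with a 1.5-fold or larger significant decrease, p below 0.05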
- Meaning of the calls: active = confirmed: knock-down lowers infection; inactive = not picked or not confirmed
The deposit covers about 22,000 reagents; this is an unselected part of those that have a named target and a result. In the full data, 116 (0.52%) were called active. 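Calls depend on retest data that are not deposited; infection was ranked per plate without normalising between plates; the unit of the infection score is not given.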 Raw values vary from plate to plate and are shown uncorrected. The numbers tell different reagents against one gene apart. Reagent sequences are not shown. Not given: the amount of reagent, the time to read-out.

Target gene | reagent | infection score, replicate 1 | infection score, replicate 2 | cell count, replicate 1 | cell count, replicate 2 | outcome
Dci (GeneID 38100) | 1 | 1.78 | 1.76 | 6193 | 6131 | inactive
Dci (GeneID 38100) | 2 | 14.5 | 20.6 | 5772 | 5463 | inactive
CG6791 (GeneID 41391) | 1 | 6.39 | 3.22 | 6622 | 6593 | inactive
CG6791 (GeneID 41391) | 2 | 8.06 | 10.2 | 2010 | 6515 | inactive
PGRP-SA (GeneID 32099) | 1 | 5.38 | 11.6 | 6208 | 6622 | inactive
Amy-d (GeneID 36932) | 1 | 9.76 | 3.19 | 5346 | 846 | inactive
dpr5 (GeneID 41381) | 1 | 6.48 | 4.77 | 6484 | 6437 | inactive
dpr5 (GeneID 41381) | 2 | 0.79 | 1.07 | 6554 | 6347 | inactive
CG31337 (GeneID 318688) | 1 | 10.7 | 4.43 | 6066 | 5640 | inactive
kl-5 (retired record) (GeneID 3355175) | 1 | 5.95 | 2.32 | 5746 | 6390 | inactive
kl-5 (retired record) (GeneID 3355175) | 2 | 3.94 | 2.6 | 6794 | 6050 | inactive
kl-5 (retired record) (GeneID 3355175) | 3 | 2.27 | 6.36 | 6342 | 6083 | inactive
kl-5 (retired record) (GeneID 3355175) | 4 | 13 | 8.52 | 6277 | 5365 | inactive
CG14718 (GeneID 41413) | 1 | 9.35 | 19.2 | 2429 | 6068 | inactive
Usp10 (GeneID 38103) | 1 | 4.81 | 3.11 | 6383 | 7032 | inactive
Usp10 (GeneID 38103) | 2 | 3.18 | 2.26 | 6508 | 6551 | inactive
CG31806 (GeneID 261615) | 1 | 15.1 | 4.33 | 5437 | 6646 | inactive
CG31806 (GeneID 261615) | 2 | 10.6 | 8.65 | 6174 | 5653 | inactive
Frmd5 (GeneID 34398) | 1 | 4.49 | 8.19 | 6438 | 6420 | inactive
bun (GeneID 34665) | 1 | 0.93 | 0.56 | 6579 | 6094 | inactive
bun (GeneID 34665) | 2 | 0.62 | 3.93 | 6105 | 6643 | inactive
bun (GeneID 34665) | 3 | 11.2 | 15.2 | 6207 | 5848 | inactive
Plp (GeneID 3772382) | 1 | 1.43 | 1.92 | 6435 | 6865 | inactive
Plp (GeneID 3772382) | 2 | 1.97 | 1.72 | 6544 | 6389 | inactive
Plp (GeneID 3772382) | 3 | 10.7 | 16.8 | 4989 | 5406 | inactive
Ir52c (GeneID 246630) | 1 | 29.1 | 3.4 | 6285 | 6536 | inactive
Ir52c (GeneID 246630) | 2 | 23.3 | 14.1 | 5824 | 6158 | inactive
dpr3 (GeneID 3346208) | 1 | 4.58 | 10.8 | 6764 | 5956 | inactive
dpr3 (GeneID 3346208) | 2 | 5.89 | 6.85 | 5758 | 6375 | inactive
CG10175 (GeneID 42773) | 1 | 2.32 | 1.78 | 5822 | 6062 | inactive
CG10175 (GeneID 42773) | 2 | 3.96 | 9.11 | 6490 | 6453 | inactive
CG10175 (GeneID 42773) | 3 | 2.21 | 15.9 | 6963 | 6068 | inactive
CG11436 (GeneID 31386) | 1 | 4.74 | 3.12 | 5065 | 5642 | inactive
CG5800 (GeneID 32742) | 1 | 6.66 | 18.9 | 6094 | 5316 | inactive
CG5800 (GeneID 32742) | 2 | 31.9 | 5.27 | 4954 | 6620 | inactive
CG12860 (GeneID 36629) | 1 | 9.72 | 16.7 | 6841 | 5658 | inactive
CG12860 (GeneID 36629) | 2 | 8.15 | 2.38 | 6310 | 6222 | inactive
SmE (GeneID 34080) | 1 | 18.3 | 3.09 | 3531 | 3921 | inactive
Coq6 (GeneID 33777) | 1 | 4.29 | 10.2 | 6270 | 5529 | inactive
Coq6 (GeneID 33777) | 2 | 1.16 | 11.4 | 516 | 3997 | inactive
CG13577 (GeneID 37885) | 1 | 3.84 | 12.7 | 5728 | 6674 | inactive
CG15040 (GeneID 32848) | 1 | 27.4 | 10.4 | 4258 | 6239 | inactive
CG15040 (GeneID 32848) | 2 | 2.53 | 4.56 | 6633 | 6981 | inactive
CG15040 (GeneID 32848) | 3 | – | 14.4 | 357 | 5624 | inactive
Gasz (GeneID 35795) | 1 | 10.8 | 6.57 | 6498 | 6655 | inactive
Gasz (GeneID 35795) | 2 | 8.75 | 12.9 | 6752 | 5628 | inactive
CG11378 (GeneID 31060) | 1 | 0.51 | 1.6 | 6450 | 6810 | inactive
CG11378 (GeneID 31060) | 2 | 12.7 | 5.97 | 6561 | 5912 | inactive
stv (GeneID 39518) | 1 | 1.13 | 0.99 | 6478 | 6436 | inactive
stv (GeneID 39518) | 2 | 4.35 | 3.6 | 6209 | 5754 | inactive
CG11374 (GeneID 33163) | 1 | 3.24 | 3.57 | 6210 | 6582 | inactive
vls (GeneID 35289) | 1 | 22.2 | 4.12 | 6670 | 7082 | inactive
vls (GeneID 35289) | 2 | 8.07 | 3.37 | 6530 | 7072 | inactive
Obp28a (GeneID 34031) | 1 | 4.25 | 4.63 | 6066 | 6544 | inactive
Obp28a (GeneID 34031) | 2 | 1.4 | 2.2 | 6505 | 6091 | inactive
CG9338 (GeneID 35357) | 1 | 43.8 | 33.7 | 4265 | 1506 | inactive
CG9338 (GeneID 35357) | 2 | 4.74 | 5.54 | 6240 | 5725 | inactive
CG13599 (GeneID 42829) | 1 | 2.54 | 5.76 | 1101 | 5343 | inactive
